Literature values as cited in patent US20240115678A1, “PERSONALIZED […] CANCER THERAPY” (priority 2022, published 2024).

System: M2 cells cultured with EGFR-positive tumor cells
Details: tumor cells loaded with low concentrations of cetuximab

Q: With “cetuximab: anti-epidermal growth factor receptor (EGFR) monoclonal antibody” as the substance, how does the “IL-10 and VEGF production” value read?
A: further augmentation
